Literature values in publication PMC6259134, “Synthesis, Antimycobacterial, Antifungal and Photosynthesis-Inhibiting Activity of Chlorinated N-phenylpyrazine-2-carboxamides” (Molecules, 2010).

Tested on: photosystem II (PS II)
Parameters: method as in ref 8 = [8]; 8. Doležal M. Kráľová K. Šeršeň F. Miletín M. The site of action of some anilides of pyrazine-2-carboxylic acids in the photosynthetic apparatus Folia Pharm. Univ. Carol. 2001 26 13 20
Conditions: cited from earlier work

SMILES	interaction with PS II intermediates
CC(C)(C)c1ncc(C(=O)Nc2ccc(O)cc2)nc1Cl [6-chloro-5-tert-butyl-N-(4-hydroxyphenyl)pyrazine-2carboxamide]	interacted only with the D^+ intermediate
CC(C)(C)c1ncc(C(=O)Nc2cc(O)cc(Cl)c2)nc1Cl [6-chloro-5-tert-butyl-N-(5-chloro-3-hydroxyphenyl)pyrazine-2carboxamide]	interacted only with the D^+ intermediate
